We go through two sequences from article PMC5890194.

The exact form of at least one protein or probe is not confirmed.

The test system of data set [1] is His-CpxR-P (CpxR phosphorylated with acetyl phosphate) (Actinobacillus pleuropneumoniae S4074). Nature of the data set: DNase I footprinting. The following applies: 1.0 ug protein, 400 ng probe, recombinant protein, residues 1-242, protein details: His (pET-28a), label: FAM, probe letters rebuilt from the primers and the genome, part of a longer molecule.
In the next data set the target is His-RpoE (UniProt A0ABM6X141). Description: EMSA. Particulars: 1.0-3.0 ug protein, 40 ng probe, abolished by 4 ug unlabeled competitor; recombinant protein; residues 1-192; protein details: His; label: FAM; probe letters rebuilt from the primers and the genome; part of a longer molecule. (A gel shift assay detects complexes by their altered migration in electrophoresis.)

For “TAAAAAGATAAGATAAGCGGTCAGATTTGATGGAAATTTTGTAAAAATCCAGTAAAATCTGACCGCTTTCAGTCATTAAATAAGAAAATATTGATACGATTATATTTAACCGGTTTTTTTATATAACATTGATTGAATTTTTACACATAAGTAGTTTAGTAAAATTATAAATATTTGTAGCATCCTTAGTCTTGTTATTGAATTTTATTAAAGTATTTGTAAATAATTGAGTAATTTATTCTTTATATGAACTTTTCATTTTTGTTACACACT (double strand) [rpoE promoter 273-bp footprinting probe]”, in data set [1], the binding result is listed as “binds”.

For “TAATTAAGACGTCCGACTTGCTTTATTTAAAATTTTTGGAACTTTTAAATAGTAATTCATTCAAAGGATGTGATGAATAGGGATTTTTATATCTGAATAAAGATGTGTAAATTTATATTTGTCAAGTATGAAGGCTATTATAACTACGTTATATGTTAATGTGGCGGTATGTTGTTTGACTATATTTATAGTGTAATTCGATTATATAACAGTATGGATTTGTTATAGGTTTTAGCTTTTTTACTTAGGTAAAAGATACGATGCTAAAGATCGATTATATCTTCCCTTCTTTAATGCTATCAGCAATTCATAATACTAAGACAATATTTATTGAAATTAAGTTCAATACAAAATGGCGGAACCTCGATAATTTCTATTGTTAGTTCTGATGCTTAGTTTTTTGCTTATGGCTCAAGGTGAATATAAAAAGGATGTCTAACAGCCTCTCCATGCTCTTTATCCGTTAATTTAAGCTGTTACGTTTGTATGCTTCCGTAATGTATATAAGAGAAAGTAGTCTTTATGCGATTAAGAATGC (double strand) [pgaABCD promoter probe]”, the binding result with His-RpoE is given as “binds”.
